Compound potency records, mixed from different reports. Data source: NIAID ChemDB in PubChem.

Shared fields: target-level tests; agent: HIV-1; target: Reverse transcriptase

Two numbers with a dash give a range or band.

SMILES	tested at	read by	strain or isolate	endpoint	changes	result
Cc1c(Cc2ccccc2)nc(SCCCCO)[nH]c1=O	-	-	-	fold resistance	RT-Y188L	0.829
CCN1c2ncc(CCOc3ccc(CC(C)C(=O)O)c4ccccc34)cc2C(=O)Nc2c(C)ccnc21	-	nucleotide incorporation / radiometric	-	fold resistance	RT-Y188L	>10
Cc1cc(-c2ccc(CC(=O)O)cc2)ccc1OCCc1cnc2c(c1)C(=O)N(C)c1cccnc1N2	-	nucleotide incorporation / radiometric	IIIB	IC50	RT-K103N Y181C	>0.1 µM
O=C(O)Cc1ccc(-c2ccc(NC(=O)CSc3nnnn3-c3ccc(OC(F)(F)F)cc3Cl)c(Cl)c2)cc1	-	PicoGreen / fluorescence	-	IC50	RT-K103 Y181C	<1 µM
CCN1c2ncc(CCOc3ccc(C(=O)Nc4ccc(C(=O)O)cn4)cc3C)cc2C(=O)N(C)c2cccnc21	-	nucleotide incorporation / radiometric	IIIB	IC50	RT-K103N Y181C	<0.05 µM
Cn1cc(NC(=O)COc2ccc(NC(=O)CSc3nnnn3-c3ccc(C(C)(C)C)cc3Cl)c(Cl)c2)cc1C(=O)O	-	PicoGreen / fluorescence	-	IC50	RT-K103 Y181C	<1 µM
CN1C(=O)c2ccnnc2Oc2ccccc21	33 µM	ELISA	-	inhibition	-	17%
CC(C)(C)c1ccc(-n2nnnc2SCC(=O)Nc2ccc(NS(=O)(=O)c3ccccc3)cc2Cl)c(Cl)c1	-	PicoGreen / fluorescence	-	IC50	RT-K103 Y181C	<1 µM
Cc1cc(C)c2c(c1)N(CC1CC1)C(=O)c1cc(Cl)nnc1O2	330 µM	ELISA	-	inhibition	-	31%
CCN1c2ncc(CCOc3ccc(NS(C)(=O)=O)cc3C)cc2C(=O)N(C)c2cccnc21	-	nucleotide incorporation / radiometric	IIIB	IC50	RT-K103N Y181C	<0.05 µM
CCN1c2ncc(CCOc3ccc(CCC(=O)O)c4ccccc34)cc2C(=O)Nc2c(C)cc(F)nc21	-	nucleotide incorporation / radiometric	-	fold resistance	RT-K103N Y181C	1–10
c1ccc2c(c1)CCN(c1nn3c(-c4ccsc4)nnc3c3ccccc13)C2	-	RT activity / fluorescence	KER2008	IC90	-	29.6 µM
O=C(O)Cc1ccc(-c2ccc(NC(=O)CSc3nnnn3-c3ccc(C(F)(F)F)cc3Cl)c(Cl)c2)cc1	-	PicoGreen / fluorescence	WT	IC50	-	<1 µM
Cc1nnc2c3ccccc3c(N3CCc4cccnc4C3)nn12	-	RT activity / fluorescence	98US_MSC5016	IC90	-	3.11 µM
CCN1c2ncc(CCOc3ccc(CC(C)C(=O)O)c4ccccc34)cc2C(=O)N(C)c2ccc(Cl)nc21	-	nucleotide incorporation / radiometric	-	fold resistance	RT-Y188L	>10
CC(=O)Nc1cc2c(cc1OC(F)(F)F)CCN(c1nn3c(C)nnc3c3ccccc13)C2	-	RT activity / fluorescence	KER2008	IC50	-	0.63 µM
CC(C)(C#Cc1ccc(NC(=O)CSc2nnnn2-c2ccc(CC3CC3)cc2Cl)c(Cl)c1)OCCN1CCCC1	-	PicoGreen / fluorescence	-	IC50	RT-K103 Y181C	<1 µM
CC(=O)Nc1ccc2c(c1)CN(c1nn3c(C)nnc3c3ccccc13)CC2	-	RT activity / fluorescence	IIIB	IC90	-	65.1 µM
CCN1c2ncc(CCOc3ccc(C(=O)NNCC(=O)O)cc3C)cc2C(=O)N(C)c2cccnc21	-	nucleotide incorporation / radiometric	IIIB	IC50	-	<0.05 µM
CC(C)(C)c1ccc(-n2nnnc2SCC(=O)Nc2ccc(NC(=O)Nc3ccc(C(=O)O)cc3)cc2Cl)c(Cl)c1	-	PicoGreen / fluorescence	-	IC50	RT-K103 Y181C	<1 µM
c1ccc2c(c1)CN(c1nn3c(C4CC4)nnc3c3ccccc13)C2	-	RT activity / fluorescence	IIIB	IC90	-	>100 µM
COC(=O)NCCCCNc1nc(Cc2ccccc2)c(C)c(=O)[nH]1	-	-	-	Ki	RT-Y188L	>1000 µM
FC(F)c1nnc2c3ccccc3c(N3CCc4ccccc4C3)nn12	-	RT activity / fluorescence	IIIB	IC90	-	0.98 µM
Cc1ccc2c(c1)N(CC(C)C)C(=O)c1ccnnc1O2	33 µM	ELISA	-	inhibition	-	33%
CCN1c2ncc(CCOc3ccc(CC(=O)NN)c4ccccc34)cc2C(=O)N(C)c2ccc(Cl)nc21	-	nucleotide incorporation / radiometric	-	fold resistance	RT-V106A	1–10
CC(C)(C)c1ccc(-n2nnnc2SCC(=O)Nc2ccc(NC(=O)C3CCCCC3)cc2Cl)c(Cl)c1	-	PicoGreen / fluorescence	-	IC50	RT-K103 Y181C	<1 µM
COc1ccc2c(c1)CN(c1nn3c(-c4cccs4)nnc3c3ccccc13)CC2	-	RT activity / fluorescence	IIIB	IC50	-	20.7 µM
CCN1c2ncc(CCOc3ccc(S(=O)(=O)NCC(=O)O)c4ccccc34)cc2C(=O)N(C)c2cccnc21	-	nucleotide incorporation / radiometric	-	fold resistance	RT-V106A	1–10
CCN1c2ncc(CCOc3ccc(N(C)c4ccc(C(=O)O)cc4)cc3C)cc2C(=O)N(C)c2cccnc21	-	nucleotide incorporation / radiometric	IIIB	IC50	-	<0.05 µM
Cc1cc(C(F)(F)F)cc(-n2nnnc2SCC(=O)Nc2ccc(-c3ccc(CC(=O)O)cc3)cc2Cl)c1Cl	-	PicoGreen / fluorescence	-	IC50	RT-K103 Y181C	<1 µM
CCc1cc(CCc2nc3ccccc3o2)c(=O)[nH]c1C	-	nucleotide incorporation	-	fold resistance	RT-Y181S	153
CC(C)(C#Cc1ccc(NC(=O)CSc2nnnn2-c2ccc(C3CC3)cc2Cl)c(Cl)c1)NC(=O)N1CCNCC1	-	PicoGreen / fluorescence	-	IC50	RT-K103 Y181C	<1 µM
CCN1c2ncc(CCOc3ccc(-c4ncccn4)cc3)cc2C(=O)N(C)c2cccnc21	-	nucleotide incorporation / radiometric	IIIB	IC50	RT-K103N Y181C	>0.1 µM
O=C(CSc1nnnn1-c1cc(C(F)(F)F)ccc1Cl)Nc1ccc(-c2ccc(OCCN3CCCC3)cc2)c(F)c1Cl	-	PicoGreen / fluorescence	-	IC50	RT-K103 Y181C	<1 µM
CCN1c2ncc(CCOc3ccc(-c4c(C)ccc[n+]4[O-])cc3C)cc2C(=O)N(C)c2cccnc21	-	nucleotide incorporation / radiometric	IIIB	IC50	-	0.05–0.1 µM
CC(C)(C#Cc1ccc(NC(=O)CSc2nnnn2-c2ccc(C3CC3)cc2Cl)c(Cl)c1)C(=O)NCc1cc[n+]([O-])cc1	-	PicoGreen / fluorescence	WT	IC50	-	<1 µM
CC(=O)Nc1ccc2c(c1)CN(c1nn3c(C4CC4)nnc3c3ccccc13)CC2	-	RT activity / fluorescence	IIIB	IC50	-	0.15 µM
CC(C)(C#Cc1ccc(NC(=O)CSc2nnnn2-c2cc(C(F)(F)F)ccc2Cl)c(Cl)c1)OCCN1CCCC1	-	PicoGreen / fluorescence	WT	IC50	-	<1 µM
CCCN1C(=O)c2ccnnc2Oc2ccc(C(F)(F)F)cc21	330 µM	ELISA	-	inhibition	-	27%
O=C(CSc1nnnn1-c1ccc(C2CC2)cc1Cl)Nc1ccc(S(=O)(=O)N2CCC(C(=O)O)CC2)cc1Cl	-	PicoGreen / fluorescence	-	IC50	RT-K103 Y181C	<1 µM
CCN1c2ncc(CCOc3ccc(CC(=O)O)c4ccccc34)cc2C(=O)Nc2c(C)ccnc21	-	nucleotide incorporation / radiometric	-	fold resistance	RT-Y188L	>10
CC(C)(C)c1ccc(-n2nnnc2SCC(=O)Nc2ccc(OCC(=O)NC3CCN(Cc4ccccc4)CC3)cc2Cl)c(Cl)c1	-	PicoGreen / fluorescence	-	IC50	RT-K103 Y181C	<1 µM
Cc1c(Cc2ccccc2)nc(NCCCCN)[nH]c1=O	-	-	-	Ki	RT-Y188L	>1000 µM

For reference, 5 entries again:

| SMILES | tested at | read by | strain or isolate | endpoint | changes | result |
|---|---|---|---|---|---|---|
| CC(C)(C)c1ccc(-n2nnnc2SCC(=O)Nc2ccc(NC(=O)Nc3ccc(C(=O)O)cc3)cc2Cl)c(Cl)c1 | - | PicoGreen / fluorescence | - | IC50 | RT-K103 Y181C | <1 µM |
| c1ccc2c(c1)CCN(c1nn3c(-c4ccsc4)nnc3c3ccccc13)C2 | - | RT activity / fluorescence | KER2008 | IC90 | - | 29.6 µM |
| CC(=O)Nc1ccc2c(c1)CN(c1nn3c(C4CC4)nnc3c3ccccc13)CC2 | - | RT activity / fluorescence | IIIB | IC50 | - | 0.15 µM |
| O=C(O)Cc1ccc(-c2ccc(NC(=O)CSc3nnnn3-c3ccc(C(F)(F)F)cc3Cl)c(Cl)c2)cc1 | - | PicoGreen / fluorescence | WT | IC50 | - | <1 µM |
| CCN1c2ncc(CCOc3ccc(S(=O)(=O)NCC(=O)O)c4ccccc34)cc2C(=O)N(C)c2cccnc21 | - | nucleotide incorporation / radiometric | - | fold resistance | RT-V106A | 1–10 |

An empty or dashed field is not shown. Fold resistance has wild type as its base. Percent inhibition refers to the dose given; in toxicity tests it is the harm to the cells. Conditions beyond the fields shown may differ between rows. ICn is the concentration giving n% inhibition.